Compound potency records, mixed from different reports. Data source: NIAID ChemDB in PubChem.

Common to all: enzyme or target tests

Blank or dashed fields: not listed here. Rows are shuffled and stem from different studies. ICn: concentration for n% inhibition. Inhibition is in % at the dose shown (toxicity tests: loss of growth or viability). a–b is a range or a potency band.

structure,target,strain,read by,species,measure,tested at,value
O=C(NCc1ccccc1Cl)Nc1ccsc1-c1nc(C(=O)O)c(O)c(=O)[nH]1,HCV polymerase,-,-,Hepatitis C virus,IC50,-,<25 µM
Cc1cccc(/C=C2/SC(=S)N(NS(=O)(=O)c3ccccc3)C2=O)c1,NS5B polymerase,-,-,Hepatitis C virus,IC50,-,≤30 µM
CC1CCC(C(=O)N(c2ccncc2)c2cc(-c3ccccc3)sc2C(=O)O)CC1,NS3 ATPase,-,-,Hepatitis C virus,IC50,-,<5 µM
O=C(NC(=O)c1sccc1[N+](=O)[O-])Nc1ccsc1-c1nc(C(=O)O)c(O)c(=O)[nH]1,HCV polymerase,-,-,Hepatitis C virus,IC50,-,<25 µM
CN1CCNCCC1c1cc(C(=O)Nc2ccc3cn[nH]c3c2)c(F)cc1F,Reverse transcriptase,-,-,Hepatitis B virus,inhibition,1 µg/mL,53%
Cc1cc(S(=O)(=O)Nc2cc(-c3ccccc3)sc2C(N)=O)c(C)cc1Cl,NS3 ATPase,-,-,Hepatitis C virus,IC50,-,<5 µM
CN1CCN(c2cc(C(=O)Nc3ccc4cn[nH]c4c3)c(F)cc2F)CC1,Reverse transcriptase,-,-,Hepatitis B virus,inhibition,0.01 µg/mL,10%
Cc1ccc(/C=C2/SC(=S)N(Cc3ccccc3)C2=O)cc1,NS5B polymerase,-,-,Hepatitis C virus,IC50,-,>30 µM
O=C(O)c1sc(-c2ccccc2)cc1N(Cc1ccc([N+](=O)[O-])cc1)C(=O)C1CC1,NS3 ATPase,-,-,Hepatitis C virus,IC50,-,5–20 µM
O=C1/C(=C\c2ccc(Cl)c(F)c2)SC(=S)N1NS(=O)(=O)c1ccccc1,NS5B polymerase,-,-,Hepatitis C virus,IC50,-,≤30 µM
CN1CCNCCC1c1cc(C(=O)Nc2ccc3[nH]ncc3c2)c(F)cc1F,Reverse transcriptase,-,-,Hepatitis B virus,inhibition,1 µg/mL,74%
CS(=O)(=O)c1ccc(C(=O)Nc2ccsc2-c2nc(C(=O)O)c(O)c(=O)[nH]2)cc1,HCV polymerase,-,-,Hepatitis C virus,IC50,-,<25 µM
C=Cc1cc(C)ccc1C(=O)N(c1cc(-c2ccccc2)sc1C(=O)O)C(C)C,NS3 ATPase,-,-,Hepatitis C virus,IC50,-,5–20 µM
O=C(Nc1cccc(-c2nc(C(=O)O)c(O)c(=O)[nH]2)c1)c1ccc(Br)s1,HCV polymerase,-,-,Hepatitis C virus,IC50,-,<100 µM
C=CCN(C(=O)Cc1ccc(F)cc1Cl)c1cc(-c2ccccc2)sc1C(=O)O,NS3 ATPase,-,-,Hepatitis C virus,IC50,-,5–20 µM
O=C(Nc1ccc2cn[nH]c2c1)c1cc(N2CCC(O)CC2)c(F)cc1F,Reverse transcriptase,-,-,Hepatitis B virus,inhibition,0.1 µg/mL,38%
O=C(O)[C@H](Cc1ccccc1)N(Cc1ccc(Br)s1)C(=O)c1ccc(Cl)cc1Cl,RNA-dependent RNA polymerase,-,-,Hepatitis C virus,IC50,-,<5 µM
O=C1/C(=C\c2cc(F)ccc2F)SC(=S)N1NS(=O)(=O)c1ccccc1,NS5B polymerase,-,-,Hepatitis C virus,IC50,-,≤30 µM
CC(C)[C@H](N)C(=O)Nc1ccsc1-c1nc(C(=O)O)c(O)c(=O)[nH]1,HCV polymerase,-,-,Hepatitis C virus,IC50,-,<25 µM
O=C1/C(=C\c2ccc3c(c2)OCCO3)SC(=S)N1NS(=O)(=O)c1ccccc1,NS5B polymerase,-,-,Hepatitis C virus,IC50,-,≤30 µM
O=C(O)[C@H](Cc1ccccc1)N(Cc1ccc(-c2ccc(F)c(Cl)c2)o1)C(=O)c1ccc(Cl)cc1Cl,RNA-dependent RNA polymerase,-,-,Hepatitis C virus,IC50,-,<5 µM
CC1CCC(C(=O)N(c2cc(-c3ccc(F)cc3)sc2C(=O)O)C(C)C)CC1,NS3 ATPase,-,-,Hepatitis C virus,IC50,-,<5 µM
O=C(Nc1cscc1-c1nc(C(=O)O)c(O)c(=O)[nH]1)OCc1ccccc1F,HCV polymerase,-,-,Hepatitis C virus,IC50,-,<25 µM
COC(=O)c1ccc(-c2ccc(CN([C@@H](Cc3ccccc3)C(=O)O)S(=O)(=O)c3c(C)cc(OC)c(C)c3C)cc2)s1,RNA-dependent RNA polymerase,-,-,Hepatitis C virus,IC50,-,>20 µM
COc1cc(/C=C2/SC(=S)N(NS(=O)(=O)c3ccccc3)C2=O)ccc1F,NS5B polymerase,-,-,Hepatitis C virus,IC50,-,≤30 µM
O=C(Nc1cccc(-c2nc(C(=O)O)c(O)c(=O)[nH]2)c1)Nc1ccccc1-c1ccccc1,HCV polymerase,-,-,Hepatitis C virus,IC50,-,<100 µM
O=C1/C(=C\c2ccc(Cl)cc2Cl)SC(=S)N1NS(=O)(=O)c1ccccc1,NS5B polymerase,-,-,Hepatitis C virus,IC50,-,≤30 µM
O=C(O)[C@H](Cc1ccccc1)N(Cc1ccc2ccccc2c1)c1ccc(Cl)cc1Cl,RNA-dependent RNA polymerase,-,-,Hepatitis C virus,IC50,-,<5 µM
O=C1/C(=C\c2ccc(Br)c(Br)c2)SC(=S)N1NS(=O)(=O)c1ccccc1Cl,NS5B polymerase,-,-,Hepatitis C virus,IC50,-,≤30 µM
C=Cc1cc(NS(=O)(=O)c2ccccc2C)c(C(=O)O)s1,NS3 ATPase,-,-,Hepatitis C virus,IC50,-,5–20 µM
O=C(O)[C@H](Cc1ccccc1)N(Cc1cccc(Cl)c1)C(=O)c1ccc(Cl)cc1Cl,RNA-dependent RNA polymerase,-,-,Hepatitis C virus,IC50,-,<5 µM
O=C(Nc1ccc2[nH]ncc2c1)c1cc(NCc2ccccn2)c(F)cc1F,Nonstructural protein 5B,-,-,Hepatitis C virus,inhibition,10 µg/mL,78%
Cc1ccccc1S(=O)(=O)Nc1cc(-c2ccccc2C#N)sc1C(=O)O,NS3 ATPase,-,-,Hepatitis C virus,IC50,-,5–20 µM
C=CC(=O)NCC(=O)N1C[C@H](Oc2nccc3ccc(Br)cc23)C[C@H]1C(=O)N[C@]1(C(=O)NS(=O)(=O)C2CC2)C[C@H]1C=C,Nonstructural protein 3/4A,1b C159S,FRET,Hepatitis C virus,IC50,-,0.685 µM
CC1=CCC(C(=O)N(c2cc(-c3ccccc3)sc2C(=O)O)C(C)C)C1,NS3 ATPase,-,-,Hepatitis C virus,IC50,-,<5 µM
O=C(Nc1ccc2cn[nH]c2c1)c1cc(C2CCNCCN2)c(F)cc1F,Reverse transcriptase,-,-,Hepatitis B virus,IC50,-,0.1–1 µg/mL
O=C(NCc1cnc2ccccc2c1)Nc1ccsc1-c1nc(C(=O)O)c(O)c(=O)[nH]1,HCV polymerase,-,-,Hepatitis C virus,IC50,-,<25 µM

For reference, 3 entries again:

| structure | target | strain | read by | species | measure | tested at | value |
|---|---|---|---|---|---|---|---|
| O=C(O)[C@H](Cc1ccccc1)N(Cc1ccc(-c2ccc(F)c(Cl)c2)o1)C(=O)c1ccc(Cl)cc1Cl | RNA-dependent RNA polymerase | - | - | Hepatitis C virus | IC50 | - | <5 µM |
| Cc1ccc(/C=C2/SC(=S)N(Cc3ccccc3)C2=O)cc1 | NS5B polymerase | - | - | Hepatitis C virus | IC50 | - | >30 µM |
| O=C(Nc1cccc(-c2nc(C(=O)O)c(O)c(=O)[nH]2)c1)Nc1ccccc1-c1ccccc1 | HCV polymerase | - | - | Hepatitis C virus | IC50 | - | <100 µM |